Results of unrelated studies side by side (data: NIAID ChemDB).

Shared fields: tests in culture; agent: Rhinovirus; measure: EC50

ECn: concentration that inhibits the pathogen or its effect by n%.

compound,strain,cells,method,result
COc1ccc(Cn2cnc3c(N(C)C)nc(C(F)(F)F)nc32)cc1C,Serotype 8,M-HELA,plaque count,>8 µM
CSc1nsc(-c2ccccc2)c1C#N,Serotype 51 (group B),HELA-OHIO,cytopathic effect,>80 µM
CCOC(=O)c1ccc(OCCCCOc2ccc(-c3snc(SC)c3C#N)cc2)cc1,Serotype 41 (group B),HELA-OHIO,cytopathic effect,>2 µM
Fc1cccc(Cn2cnc3c(Nc4cccc(F)c4)nc(C(F)(F)F)nc32)c1,Serotype 47,M-HELA,plaque count,1.7 µM
CSc1nsc(-c2ccc(OCCCOc3ccc([N+](=O)[O-])cc3)cc2)c1C#N,Serotype 51 (group B),HELA-OHIO,cytopathic effect,>1 µM
CSc1nsc(-c2ccc(OS(=O)(=O)c3ccc(C)cc3)cc2)c1C#N,Serotype 45 (group A),HELA-OHIO,cytopathic effect,>25 µM
CCO/N=C/c1ccc(OCCC2CCN(c3ccc(Cl)nn3)CC2)cc1,thompson (ICAM-1 receptor group 6,KB,neutral red,0.003 µM
CN(C)c1ccc(Cn2cnc3c(N(C)C)nc(C(F)(F)F)nc32)cc1,Serotype 8,M-HELA,plaque count,>8 µM
Fc1cccc(Nc2nc(C(F)(F)F)nc3c2ncn3Cc2ccccc2F)c1,Serotype 1B,M-HELA,plaque count,3.9 µM
CSc1nsc(-c2ccc(OCCOc3ccc(C#N)cc3)cc2)c1C#N,Serotype 51 (group B),HELA-OHIO,cytopathic effect,>2 µM
CN(C)c1nc(C(F)(F)F)nc2c1ncn2Cc1ccc(Cl)cc1,Serotype 1B,M-HELA,plaque count,0.03 µM
CSc1nsc(-c2ccc(OCCCOc3ccc(C#N)cc3)cc2)c1C#N,Serotype 2 (group B),HELA-OHIO,cytopathic effect,>2 µM
CSc1nsc(-c2ccc(OCc3ccccc3)cc2)c1C#N,Serotype 86 (group A),HELA-OHIO,cytopathic effect,2 µM
Cc1ccc(Cn2cnc3c(N(C)C)nc(C(F)(F)F)nc32)c(C)c1,Serotype 21,M-HELA,plaque count,>8 µM
CSc1nsc(-c2ccc(OCCCOc3ccccc3)cc2)c1C#N,Serotype 59 (group B),HELA-OHIO,cytopathic effect,>20 µM
CN(C)c1nc(C(F)(F)F)nc2c1ncn2Cc1ccc(C(F)(F)F)cc1,TYPE 1B,M-HELA,plaque count,0.11 µM
CCOC(=O)c1ccc(OCCCOc2ccc(-c3snc(SC)c3C#N)cc2)cc1,Serotype 45 (group A),HELA-OHIO,cytopathic effect,>2 µM
CN(C)c1nc(C(F)(F)F)nc2c1ncn2Cc1ccc(F)cc1,Serotype 21,M-HELA,plaque count,>8 µM
CCOC(=O)/C=C/[C@H](C[C@@H]1CCNC1=O)NC(=O)[C@@H](CC(=O)[C@@H](NC(=O)c1cc(C)on1)C(C)C)Cc1ccc(F)cc1,Isolate 46,OHIO HELA-I,cytopathic effect / visual reading,0.02 µg/mL
CN(C)c1nc(C(F)(F)F)nc2c1ncn2Cc1ccc(Cl)c(NC=O)c1,Serotype 3,M-HELA,plaque count,>8 µM
CSc1nsc(-c2ccc(OCCc3ccccc3)cc2)c1C#N,Serotype 45 (group A),HELA-OHIO,cytopathic effect,>20 µM

Conditions beyond the fields shown may differ between rows.